Measured values from several laboratories, pooled; numbers as filed in NIAID ChemDB.

All rows: whole-cell or culture tests; agent: Mycobacterium tuberculosis

ECn: concentration that inhibits the pathogen or its effect by n%. A number after MIC or MFC names an inhibition level or a share of isolates. Fold resistance has wild type as its base. Percent inhibition refers to the dose given; in toxicity tests it is the harm to the cells. MIC bound comes from a single tested concentration. Rows are shuffled and stem from different studies. An empty or dashed field is not shown.

SMILES,read by,measure,conditions,tested at,strain,mutations,value
O=C(NN1C(=O)CSC1c1ccccc1F)c1ncc2cc(C(F)(F)F)ccc2n1,visual reading,MIC,-,-,H37Rv,-,3.02 µM
S=c1[nH]c2ccccc2[nH]1,-,MIC,-,-,My 331/88,-,500 µM
COc1cc(Cc2cnc(N)nc2N)cc(OC)c1OC,-,MIC,-,-,H37Ra,-,179 µg/mL
CO[C@H]1/C=C/O[C@@]2(C)Oc3c(C)c(O)c4c(=O)c(c5oc6cc(N7CCN(CC(C)C)CC7)cc(=O)c6nc5c4c3=C2O)NC(=O)/C(C)=C\C=C\[C@H](C)[C@H](O)[C@@H](C)[C@@H](O)[C@@H](C)[C@H](OC(C)=O)[C@@H]1C,-,inhibition,inside macrophages,5 µg/mL,FUJII,-,96.1%
CCCCCCCCCCCCCCCCSc1nc2ccccc2[nH]1,-,MIC,-,-,My 331/88,-,>250 µM
COc1ccc(/C=N/NC(=O)c2cc(-c3ccc(F)cc3F)ccc2O)cc1,resazurin,inhibition,-,6.25 µg/mL,H37Rv,-,15%
CCCN1CCN(c2ccc([N+](=O)[O-])c3no[n+]([O-])c23)CC1,BACTEC,MIC,-,-,H37Rv,-,3.13 µg/mL
CN(C)CC1CCC/C(=C\c2ccc(OC(=O)/C=C/c3ccc(Cl)cc3)cc2)C1=O,-,inhibition,-,12.5 µg/mL,H37Rv,-,100%
O=C1Nc2ccc(Cl)cc2[C@]12N1CSC[C@H]1[C@H](c1ccc(Br)cc1)[C@]21Cc2ccccc2C1=O,agar,MIC99,-,-,H37Rv,-,11.3 µM
CC(=O)N1N=C(c2sc3ccc(Cl)cc3c2Cl)OC1c1ccccc1,agar diffusion / agar,inhibition,-,40 µg/mL,-,-,27%
Cc1cccc(/C=C2/NC(=S)NC2=O)c1,BACTEC,EC50,-,-,H37Rv,-,<6.25 µg/mL
O=C(N/N=C/c1ccc([N+](=O)[O-])o1)c1cc(-c2ccc(F)cc2F)ccc1O,resazurin,MIC,-,-,H37Rv,-,>6.25 µg/mL
CSC(=S)N/N=C(/C)c1cccs1,-,MIC,-,-,CS-R,-,0.8 µg/mL
CC(=O)N1N=C(c2sc3ccc(Cl)cc3c2Cl)OC1c1cc2cc(C)ccc2nc1Cl,agar diffusion / agar,inhibition,-,40 µg/mL,-,-,8%
COc1cc(C)c(/C=C2/NC(=S)NC2=O)cc1C,BACTEC,EC50,-,-,H37Rv,-,>6.25 µg/mL
Cc1c(CN2CCSCC2)cc(-c2ccc(Cl)cc2)n1-c1ccc(F)cc1,-,MIC,-,-,103471,-,1 µg/mL
Fc1ccccc1CSc1nc2ccccc2[nH]1,-,MIC,-,-,My 331/88,-,>125 µM
CN(C)N1C(=O)C2C(C1=O)[C@H]1C=C[C@@H]2O1,BACTEC,inhibition,-,12.5 µg/mL,H37Rv,-,8%
Cc1ccc(C)c(C2SCC(=O)N2NC(=O)c2ncc3cc(C(F)(F)F)ccc3n2)c1,visual reading,MIC,-,-,H37Rv,-,1.27 µM
Cc1c(CN2CCN(C)CC2)cc(-c2cccc3ccccc23)n1-c1ccccc1,-,MIC,-,-,103471,-,>16 µg/mL
NC1=NS(=O)(=O)Nc2nc(-c3ccc([N+](=O)[O-])o3)[nH]c21,resazurin,inhibition,-,6.25 µg/mL,H37Rv,-,-13%
Fc1ccc(CSc2nc3ccccc3[nH]2)cc1,-,MIC,-,-,My 331/88,-,62 µM
COc1ccc(C2OC(c3sc4ccc(Cl)cc4c3Cl)=NN2C(C)=O)cc1,agar diffusion / agar,inhibition,-,40 µg/mL,-,-,0%
CO[C@H]1/C=C/O[C@@]2(C)Oc3c(C)c(O)c4c(O)c(c5c(c4c3C2=O)NC2(CCN(CC(C)C)CC2)N=5)=NC(=O)/C(C)=C\C=C\[C@H](C)[C@H](O)[C@@H](C)[C@@H](O)[C@@H](C)[C@H](OC(C)=O)[C@@H]1C,-,MIC,-,-,H37Rv-pSL (Leu 531 mutation),-,16 µg/mL
CCCSc1nc2ccccc2[nH]1,-,MIC,-,-,My 331/88,-,500 µM
CC(C(=O)O)/C(=C/c1ccc2c(c1)OCO2)C(=O)O,resazurin,MIC bound,-,-,H37Rv,-,>6.25 µg/mL
Cc1cc(C2=NNC(c3ccco3)C2)ccc1O,-,MIC,-,-,H37Rv,-,>6.25 µg/mL
NC(=O)c1cnccn1,-,MIC,-,-,ATCC 25618,-,≤100 µg/mL
Cc1c(C(=O)Nc2ccc(Cl)c(C(F)(F)F)c2)oc2cc(O)ccc2/c1=N\NC(N)=S,BACTEC,inhibition,-,12.5 µg/mL,H37Rv,-,25%
Cc1cc(O)c2c(c1)C(=O)C=CC2=O,-,MIC,-,-,WC 64/02,-,0.5 µg/mL
O=C(/C=C/c1ccc(Cl)cc1)Oc1ccc(/C=C2\CCCCC2=O)cc1,-,inhibition,-,12.5 µg/mL,H37Rv,-,0%
Cc1cc(C2=NNC(c3c(Cl)cccc3Cl)C2)ccc1O,-,inhibition,-,6.25 µg/mL,H37Rv,-,83%
CC[C@@]1(O)C(=O)OCc2c1cc1n(c2=O)Cc2cc3c(OC)cccc3nc2-1,resazurin,MIC bound,-,-,H37Rv,-,>6.25 µg/mL
Cc1ccc(/C=C/C(=O)Oc2ccc(/C=C3\CCCCC3=O)cc2)cc1,-,EC50,-,-,H37Rv,-,>12.5 µg/mL
Cc1c(CN2CCN(C)CC2)cc(-c2ccc(Cl)cc2)n1-c1ccc(F)cc1,-,MIC,-,-,103471,-,2 µg/mL
COc1cc(C2OC(c3sc4ccc(Cl)cc4c3Cl)=NN2C(C)=O)cc(OC)c1OC,agar diffusion / agar,inhibition,-,40 µg/mL,-,-,0%
COC(=O)C1(NC(=O)[C@H](CC(=O)OCc2ccccc2)NC(=O)OCc2ccccc2)CCCCCCC1,resazurin,inhibition,-,6.25 µg/mL,H37Rv,-,7%
COc1ccc(C2CC(c3ccc(O)c(C)c3)=NN2)cc1OC,-,inhibition,-,6.25 µg/mL,H37Rv,-,78%
CC(C)NC(=O)OCCN=C1c2ccccc2C(Br)C(Br)c2ccccc21,BACTEC,inhibition,-,12.5 µg/mL,H37Rv,-,52%
O=C1NC(=S)N/C1=C\c1c(F)cccc1Cl,BACTEC,EC50,-,-,H37Rv,-,>6.25 µg/mL
CC1(C)CC[C@]2(C(=O)O)CC[C@]3(C)C(=CCC4[C@@]5(C)CC[C@H](O)C(C)(C)C5CC[C@]43C)C2C1,-,MIC,-,-,H37Rv,-,25 µg/mL
Cc1c(CN2CCSCC2)cc(-c2ccccc2Cl)n1-c1ccccc1Cl,-,MIC,-,-,103471,-,5 µg/mL
CCN(CC)Cc1nccn1-c1ccc([N+](=O)[O-])cc1C(=O)c1ccccc1Cl,resazurin,inhibition,-,6.25 µg/mL,H37Rv,-,-6%
CC[C@@H](CO)NCCN[C@@H](CC)CO,-,MIC,-,-,H37Rv,-,1.25 µg/mL
Cc1c(CN2CCSCC2)cc(-c2ccccc2F)n1-c1ccccc1,-,MIC,-,-,103471,-,4 µg/mL
COc1cc(-c2cc(C(=O)O)c3cc4ccccc4cc3n2)cc(OC)c1OC,BACTEC,MIC bound,-,-,H37Rv,-,>12.5 µg/mL
NNC(=O)c1cc(-c2ccc(F)cc2F)ccc1O,resazurin,MIC,-,-,H37Rv,-,>6.25 µg/mL
CCCN1C(=O)CC(NC(C)=O)C1=O,BACTEC,inhibition,-,12.8 µg/mL,H37Rv,-,25%
O=C(NN1C(=O)CSC1c1ccc([N+](=O)[O-])cc1Br)c1ncc2cc(C(F)(F)F)ccc2n1,visual reading,MIC,-,-,H37Rv,-,0.96 µM
CCOc1ccc(N=C2C=C(Nc3ccc(OCC)cc3)C(=Nc3ccc(OCC)cc3)C=C2Nc2ccc(OCC)cc2)cc1,BACTEC,MIC bound,-,-,H37Rv,-,>12.5 µg/mL
Cc1cccc(C)c1N=Nc1c(C)[nH]n(C(=O)c2sc3ccc(Cl)cc3c2Cl)c1=O,agar diffusion / agar,inhibition,-,40 µg/mL,-,-,27%
C/C(=C1\NC(=S)NC1=O)c1ccc(Cl)cc1,BACTEC,EC50,-,-,H37Rv,-,>6.25 µg/mL
COc1ccc2nc(Cl)c(C3OC(c4sc5ccc(Cl)cc5c4Cl)=NN3C(C)=O)cc2c1,agar diffusion / agar,inhibition,-,40 µg/mL,-,-,4%
Clc1ccc(CSc2nc3ccccc3[nH]2)cc1,-,MIC,-,-,My 331/88,-,>32 µM
N[C@@H](Cc1c[nH]c2ccccc12)C(=O)O,BACTEC,MIC,-,-,H37Rv,-,≥128 µg/mL
COc1ccc(C2SCC(=O)N2NC(=O)c2ncc3cc(C(F)(F)F)ccc3n2)c(OC)c1,visual reading,MIC,-,-,H37Rv,-,2.38 µM
O=[N+]([O-])C1=CN2C[C@H](OCc3ccc(OC(F)(F)F)cc3)COC2N1,broth dilution,MIC,-,-,wtH37Rv,-,0.8 µM
CCc1ccc([C@H]2C[C@@H](C(F)(F)F)n3ncc(C(=O)NCc4ccc5c(c4)OCO5)c3N2)cc1,fluorescence,fold resistance,-,-,H37Rv,MmpL3: Phe255Leu,15
O=C(N/N=C/c1ccccc1F)c1cc(-c2ccc(F)cc2F)ccc1O,resazurin,MIC,-,-,H37Rv,-,>6.25 µg/mL
O=C(/C=C/c1ccc(F)cc1)Oc1ccc(/C=C2\CCCCC2=O)cc1,-,inhibition,-,12.5 µg/mL,H37Rv,-,54%
O=C1NC(=S)N/C1=C/c1ccc(Cl)cc1,BACTEC,EC50,-,-,H37Rv,-,<6.25 µg/mL
CO[C@H]1/C=C/O[C@@]2(C)Oc3c(C)c(O)c4c(O)c(c(/C=N/N5CCN(C6CCCC6)CC5)c(O)c4c3C2=O)NC(=O)/C(C)=C\C=C\[C@H](C)[C@H](O)[C@@H](C)[C@@H](O)[C@@H](C)[C@H](OC(C)=O)[C@@H]1C,-,MIC,-,-,1023,-,0.04 µg/mL
CCCNCCC(=O)Nc1ccc(C)c(Cl)c1,BACTEC,inhibition,-,12.5 µg/mL,H37Rv,-,51%
COc1cccc(CSc2nc3ccccc3[nH]2)c1,-,MIC,-,-,My 331/88,-,125 µM
COC(=O)c1ccc(/C=C2/NC(=S)NC2=O)cc1,BACTEC,EC50,-,-,H37Rv,-,>6.25 µg/mL
Cc1cc(C(=O)/C=C/c2ccc(N(C)C)cc2)ccc1O,-,MIC,-,-,H37Rv,-,6.25 µg/mL
O=[N+]([O-])c1cccc(CSc2nc3ccccc3[nH]2)c1,-,MIC,-,-,My 331/88,-,>32 µM
Nc1ccc(C(=O)O)c(O)c1,-,MIC,-,-,H37Ra,-,0.025 µg/mL
COc1cc(C2=NN(C(=O)COc3ccc4ccccc4c3)[C@H](c3ccc(O)cc3)C2)c(C)cc1OCC(=O)O,-,MIC,-,-,Isoniazid-resistant,-,>6.25 µg/mL
CN1C/C(=C/c2ccccc2[N+](=O)[O-])C(=O)/C(=C\c2ccccc2[N+](=O)[O-])C1,BACTEC,inhibition,-,12.5 µg/mL,H37Rv,-,71%
C[C@H]1CN(c2c(F)cc3c(=O)c(C(=O)O)cn(C4CC4)c3c2OC(F)F)CCN1,-,MIC50,-,-,100 isolates,-,0.5 µg/mL
CC1(C)OC2C3OCC(O3)C(OS(C)(=O)=O)C2O1,BACTEC,inhibition,-,12.5 µg/mL,H37Rv,-,4%
C=CCOc1ccc(/C=C2/NC(=S)NC2=O)cc1,BACTEC,EC50,-,-,H37Rv,-,<6.25 µg/mL
CC(C)(C)N1CCOCN2CCCCC2CCN(C(C)(C)C)CCOCN2CCCCC2CC1,BACTEC,MIC bound,-,-,H37Rv,-,>12.5 µg/mL
CN(C)CC1CCC/C(=C\c2ccc(OC(=O)c3ccccc3)cc2)C1=O,-,inhibition,-,12.5 µg/mL,H37Rv,-,100%
O=C1Nc2ccc(Cl)cc2[C@]12N1CSC[C@H]1[C@H](c1ccc([N+](=O)[O-])cc1)[C@]21Cc2ccccc2C1=O,agar,MIC99,-,-,H37Rv,-,12.1 µM
CC1COc2c(N3CCN(C)CC3)c(F)cc3c(=O)c(C(=O)O)cn1c23,-,MIC90,-,-,100 isolates,-,4 µg/mL
Cc1ccc([C@H]2[C@@H]3CSCN3[C@@]3(C(=O)Nc4ccccc43)[C@@]23Cc2ccccc2C3=O)cc1,agar,MIC99,-,-,H37Rv,-,55.2 µM
O=C1NC(=S)N/C1=C/c1ccc(Br)cc1,BACTEC,inhibition,-,6.25 µg/mL,H37Rv,-,83%
CCCC1OP(=O)(N2CC(C)N(P3(=O)OCC(CC)C(CCC)O3)CC2C)OCC1CC,BACTEC,inhibition,-,12.5 µg/mL,H37Rv,-,10%
Cc1ccccc1[C@H]1[C@@H]2CSCN2[C@@]2(C(=O)Nc3ccccc32)[C@@]12Cc1ccccc1C2=O,agar,MIC99,-,-,H37Rv,-,55.2 µM
O=C(N/N=C/c1ccc(Br)cc1)c1cc(-c2ccc(F)cc2F)ccc1O,resazurin,inhibition,-,6.25 µg/mL,H37Rv,-,16%
O=C(Cn1ccnc1)N1CCN(c2ccccc2)CC1,resazurin,inhibition,-,6.25 µg/mL,H37Rv,-,-6%
CC(=O)N1N=C(c2sc3ccc(Cl)cc3c2Cl)OC1c1ccc(O)cc1,agar diffusion / agar,inhibition,-,40 µg/mL,-,-,6%

The last 5 rows once more:

| SMILES | read by | measure | conditions | tested at | strain | mutations | value |
|---|---|---|---|---|---|---|---|
| CCCC1OP(=O)(N2CC(C)N(P3(=O)OCC(CC)C(CCC)O3)CC2C)OCC1CC | BACTEC | inhibition | - | 12.5 µg/mL | H37Rv | - | 10% |
| Cc1ccccc1[C@H]1[C@@H]2CSCN2[C@@]2(C(=O)Nc3ccccc32)[C@@]12Cc1ccccc1C2=O | agar | MIC99 | - | - | H37Rv | - | 55.2 µM |
| O=C(N/N=C/c1ccc(Br)cc1)c1cc(-c2ccc(F)cc2F)ccc1O | resazurin | inhibition | - | 6.25 µg/mL | H37Rv | - | 16% |
| O=C(Cn1ccnc1)N1CCN(c2ccccc2)CC1 | resazurin | inhibition | - | 6.25 µg/mL | H37Rv | - | -6% |
| CC(=O)N1N=C(c2sc3ccc(Cl)cc3c2Cl)OC1c1ccc(O)cc1 | agar diffusion / agar | inhibition | - | 40 µg/mL | - | - | 6% |